pKi: −log10 of the molar value. Read-outs that look alike come from different tables or passages of the source.
Molecular target: PB2 cap binding domain (PB2-CBD) (residues 318-483) (Influenza A virus, UniProt Q2LG68)
Assay: Cap Fluorescence-Polarization Ligand Displacement (CapFP-LD) assay
[1] = read-out: Fp Ki, m7GTP-5FAM tracer displacement
[2] = read-out: Fp, m7GTP-5FAM tracer displacement, quantity not given

SMILES | pKi [1] | pKi [2]
O=c1[nH]nc2ccc(-c3ncc(F)c(NCCO)n3)cn12 | 4.56 | –
O=c1[nH]nc2ccc(-c3ncc(F)c(NC4CCCCC4)n3)cn12 | 4.70 | –
O=C(N[C@@H]1CCC[C@H](Nc2nc(-c3ccc4n[nH]c(=O)n4c3)ncc2F)C1)N1CCCC1 | 5.00 | –
COC(=O)[C@@H](Nc1nc(-c2ccc3n[nH]c(=O)n3c2)ncc1F)C(C)C | 3.75 | –
COC(=O)CC(Nc1nc(-c2ccc3n[nH]c(=O)n3c2)ncc1F)C1CC1 (stereo not shown) | – | < 4.30
O=C(N[C@@H]1CCC[C@H](Nc2nc(-c3cccc4n[nH]c(=O)n34)ncc2F)C1)N1CCCC1 [reference compound] | – | < 4.30
COC(=O)C[C@@H](Nc1nc(-c2ccc3n[nH]c(=O)n3c2)ncc1F)C(C)C | 4.40 | –

Source: patent publication US20170081324A1 (priority 2015, published 2017)
